Assay results taken from the supplement of paper PMC3578754.
Fold change is the IC50 on the isolate divided by the IC50 on a reference virus; 1 = unchanged, higher = more resistant. Changes are given against the subtype B consensus. No active / inactive call. The values were gathered from many studies (numbered anew) with different assays, which the source does not name. Most viruses are clinical isolates; some are laboratory strains or clones with known resistance changes. Isolates with mixed residues are left out; stretches that were not sequenced show no change. Round top values that many isolates share are read here as limits; other very high values and 0.1 may be limits too. The protease changes I3V and N37S, insertions and deletions cannot be read from the source.

How the values were obtained:
Test in all cases: fold change of IC50 against reference virus; higher = more resistant; Cell-culture drug susceptibility tests of virus bearing the protease of each isolate, gathered from many studies.
[1] = compound: CC(C)(C)NC(=O)[C@@H]1CN(Cc2cccnc2)CCN1C[C@@H](O)C[C@@H](Cc1ccccc1)C(=O)N[C@H]1c2ccccc2C[C@H]1O [indinavir]
[2] = compound: Cc1cccc(C)c1OCC(=O)N[C@@H](Cc1ccccc1)[C@@H](O)C[C@H](Cc1ccccc1)NC(=O)[C@H](C(C)C)N1CCCNC1=O [lopinavir]
[3] = compound: CC(C)(C)NC(=O)[C@@H]1C[C@@H]2CCCC[C@@H]2CN1C[C@@H](O)[C@H](Cc1ccccc1)NC(=O)[C@H](CC(N)=O)NC(=O)c1ccc2ccccc2n1 [saquinavir]
[4] = compound: CC(C)c1nc(CN(C)C(=O)N[C@H](C(=O)N[C@@H](Cc2ccccc2)C[C@H](O)[C@H](Cc2ccccc2)NC(=O)OCc2cncs2)C(C)C)cs1 [ritonavir]
[5] = compound: Cc1c(O)cccc1C(=O)N[C@@H](CSc1ccccc1)[C@H](O)CN1C[C@H]2CCCC[C@H]2C[C@H]1C(=O)NC(C)(C)C [nelfinavir]

Row | Test System | fold change of IC50 against reference virus [1] | fold change of IC50 against reference virus [2] | fold change of IC50 against reference virus [3] | fold change of IC50 against reference virus [4] | fold change of IC50 against reference virus [5]
1 | HIV-1 isolate 960 (protease changes: L10F I54L, study 36) | 0.6 | 1 | 0.8 | 0.9 | 1.6
2 | HIV-1 isolate 974 (protease changes: L10V I13V L19P K20I E35D M36I R41K H69K L89M, study 114) | 0.9 | 1.2 | 1.3 | 1.6 | 1.6
3 | HIV-1 isolate 993 (protease changes: L10F I84V, study 30) | 2.1 | 6.2 | 2.7 | 3.6 | 2.6
4 | HIV-1 isolate 1050 (protease changes: T12S I15V L19I M36V R41K L63P H69K L89M I93L, study 114) | 0.4 | 0.3 | 0.6 | 0.3 | 0.4
5 | HIV-1 isolate 1074 (protease changes: I13V K14R K20I E35D M36I R41K H69K V82I L89M, study 114) | 0.5 | 0.7 | 0.8 | 1.2 | 1.1
6 | HIV-1 isolate 1090 (protease changes: L10I I15V I54V L63P A71V V82A I84V I85V L90M, study 116) | 7.7 | 13 | 14 | 78 | 7
7 | HIV-1 isolate 1096 (protease changes: L24I N37E M46I I54V D60E L63P I64V V82A, study 7) | 6.9 | 13.6 | 1.3 | 33.9 | 6.7
8 | HIV-1 isolate 1148 (protease changes: L10I K20I N37D R57K D60E L63P A71I G73S V77I L90M I93L, study 116) | 11 | 1.9 | 10 | 5.4 | 45
9 | HIV-1 isolate 1168 (protease changes: L10F L19I E21Q L33F M36L N37D R41I M46I I54V I62V L63P I64V I66L C67F H69R I72M V77I V82T N83D L90M Q92K, study 15) | 178 | 400 | 84 | 400 | 175
10 | HIV-1 isolate 1194 (protease changes: E35D N37D L63S V82I, study 109) | 0.3 | 0.3 | 0.6 | 0.6 | 0.4
11 | HIV-1 isolate 1204 (protease changes: L10F M46I I50V, study 30) | 1.2 | 15 | 1.4 | 5 | 3.3
12 | HIV-1 isolate 1267 (protease changes: I13V I15V K20I M36I R41K L63S H69K L89M, study 114) | 1 | 1.1 | 1 | 1.5 | 1.2
13 | HIV-1 isolate 1276 (protease changes: T12S K43R M46I L63P V82F, study 7) | 2.3 | 4.5 | 0.2 | 14.8 | 7.4
14 | HIV-1 isolate 1295 (protease changes: L10F L19R K20M E34K M36I R41K I54V D60E I62V L63P A71V V77I V82S L90M I93L, study 109) | 16 | 53 | 9.4 | 85 | 20
15 | HIV-1 isolate 1301 (protease changes: I13V H69P I72V, study 15) | 0.7 | 0.7 | 0.7 | 0.8 | 1
16 | HIV-1 isolate 1328 (protease changes: E35D L63P I64L, study 109) | 0.3 | 0.3 | 0.4 | 0.5 | 0.5
17 | HIV-1 isolate 1334 (protease changes: T12S I15V L19I M36I R41K H69K L89M I93L, study 114) | 0.9 | 0.7 | 0.7 | 0.7 | 0.7
18 | HIV-1 isolate 1336 (protease changes: I13V K14R I15V K20I E35D M36I R41K L63P H69K I72M L89M, study 114) | 0.6 | 0.8 | 0.7 | 0.8 | 0.6
19 | HIV-1 isolate 1365 (protease changes: N37E I54V D60E I64V V82A, study 7) | 0.6 | 1.2 | 0.4 | 3.4 | 0.5
20 | HIV-1 isolate 1396 (protease changes: I13V K14R I15V K20I E35Q M36I R41K R57K I64M C67E H69K V82I I85M L89M, study 114) | 0.8 | 1.1 | 1.7 | 1.6 | 1.9
21 | HIV-1 isolate 1407 (protease changes: T12S L19I L63P V77I I93L, study 15) | 1.1 | 0.9 | 0.7 | 1.1 | 1.9
22 | HIV-1 isolate 1424 (protease changes: L10V I15V M36I M46L I54V I62V L63P A71V V82A I84V L90M I93L, study 145) | 11 | 35 | 25 | 63 | 20
23 | HIV-1 isolate 1425 (protease changes: L10F M46I I54V L63P H69K A71V V82A L90M I93L, study 109) | 29 | 51 | 7.4 | 79 | 40
